Results of unrelated studies side by side (data: NIAID ChemDB).

Shared fields: tests on isolated targets; agent: Human cytomegalovirus; measure: IC50

ICn: concentration for n% inhibition. Rows are shuffled and stem from different studies. Blank or dashed fields: not listed here.

smiles,protein,method,result
N/C(=N\OC(=O)c1ccc(Cl)cc1)c1ccc(Cl)cc1Cl,Polymerase,scintillation proximity / radiometric,>50 µM
O=C(NCc1cccc(Cl)c1)c1cc2ccccc2cc1O,HCMV DNA polymerase,,>100 µM
O=C(Nc1nnc(NCCCNC2CCCCC2)s1)c1ccc(F)cc1F,Polymerase,,<25 µM
Cc1cccc2nc(N[C@@H](Cc3ccccc3)C(=O)OC(C)(C)C)oc(=O)c12,Protease,,0.74 µM
COc1ccc2cc(O)c(C(=O)N[C@@H](C)c3ccc([N+](=O)[O-])cc3)cc2c1,HCMV DNA polymerase,,>100 µM
O=C(Nc1nnc(NCCCN2CCCC2=O)s1)c1ccc([N+](=O)[O-])o1,Polymerase,,>25 µM
Cc1c(Br)ccc2nc(N[C@H](C)c3ccccc3)oc(=O)c12,Protease,,0.32 µM
O=C(c1cc2ccccc2cc1O)N1CCN(c2cccc(Cl)c2)CC1,HCMV DNA polymerase,,30 µM
Cc1cccc2nc(N(CC(=O)OC(C)(C)C)c3ccccc3)oc(=O)c12,Protease,,1.4 µM
COc1ccc2cc(O)c(C(=O)Nc3ccc(Cl)cc3)cc2c1,HCMV DNA polymerase,,>100 µM
CN=C(NOC(=O)c1ccccc1)c1ccc(Cl)cc1Cl,Polymerase,scintillation proximity / radiometric,>100 µM
COc1ccc2cc(O)c(C(=O)Nc3ncc(Br)cn3)cc2c1,HCMV DNA polymerase,,>40 µM
COC(=O)[C@H](CCSC)Nc1nc2cccc(C)c2c(=O)o1,Protease,,0.46 µM
O=C(NCc1ccc(Cl)cc1)c1ccc2ccccc2c1,HCMV DNA polymerase,,>100 µM
O=C(Nc1nnc(NCCC(c2ccccc2)c2ccccc2)s1)c1ccc(I)cc1,Polymerase,,>25 µM
COC(=O)[C@H](CCSC)Nc1nc2ccc(NC(=O)OC(C)(C)C)c(C)c2c(=O)o1,Protease,,0.77 µM
O=C(Nc1nnc(NCc2ccco2)s1)c1cc2ccccc2s1,Polymerase,,>25 µM
O=C(Nc1cccc(F)c1)c1cc2ccccc2cc1O,HCMV DNA polymerase,,>100 µM
COC(=O)[C@H](CC(C)C)Nc1nc2cccc(C)c2c(=O)o1,Protease,,1 µM
N/C(=N/OC(=O)c1cccc2ccccc12)c1ccccc1Cl,Polymerase,scintillation proximity / radiometric,>100 µM
O=C(Nc1nnc(NCCNc2ccccc2)s1)c1cccc([N+](=O)[O-])c1,Polymerase,,>25 µM
N/C(=N/OC(=O)c1cccc2ccccc12)c1cccc(Cl)c1Cl,Polymerase,scintillation proximity / radiometric,38.7 µM
COCC(=O)Nc1ccc2nc(N[C@@H](Cc3ccccc3)C(=O)OC)oc(=O)c2c1C,Protease,,0.64 µM
O=C(/C=C/c1ccccc1Cl)Nc1nnc(NCc2ccc(F)cc2)s1,Polymerase,,<25 µM
C#Cc1ccc(NC(=O)c2cc3ccccc3cc2O)cc1,HCMV DNA polymerase,,19.4 µM
C[C@@H](Nc1nc2ccc(Cl)cc2c(=O)o1)c1ccccc1,Protease,,>10 µM

For reference, 4 entries again:

smiles,protein,method,result
Cc1cccc2nc(N(CC(=O)OC(C)(C)C)c3ccccc3)oc(=O)c12,Protease,,1.4 µM
O=C(Nc1nnc(NCc2ccco2)s1)c1cc2ccccc2s1,Polymerase,,>25 µM
COc1ccc2cc(O)c(C(=O)N[C@@H](C)c3ccc([N+](=O)[O-])cc3)cc2c1,HCMV DNA polymerase,,>100 µM
COC(=O)[C@H](CCSC)Nc1nc2ccc(NC(=O)OC(C)(C)C)c(C)c2c(=O)o1,Protease,,0.77 µM